{"sequences": {"note": "Protein sequences, listed by entry. Tags and fused reporters are not part of them.", "UniProt P0CG48, whole entry, looked up": "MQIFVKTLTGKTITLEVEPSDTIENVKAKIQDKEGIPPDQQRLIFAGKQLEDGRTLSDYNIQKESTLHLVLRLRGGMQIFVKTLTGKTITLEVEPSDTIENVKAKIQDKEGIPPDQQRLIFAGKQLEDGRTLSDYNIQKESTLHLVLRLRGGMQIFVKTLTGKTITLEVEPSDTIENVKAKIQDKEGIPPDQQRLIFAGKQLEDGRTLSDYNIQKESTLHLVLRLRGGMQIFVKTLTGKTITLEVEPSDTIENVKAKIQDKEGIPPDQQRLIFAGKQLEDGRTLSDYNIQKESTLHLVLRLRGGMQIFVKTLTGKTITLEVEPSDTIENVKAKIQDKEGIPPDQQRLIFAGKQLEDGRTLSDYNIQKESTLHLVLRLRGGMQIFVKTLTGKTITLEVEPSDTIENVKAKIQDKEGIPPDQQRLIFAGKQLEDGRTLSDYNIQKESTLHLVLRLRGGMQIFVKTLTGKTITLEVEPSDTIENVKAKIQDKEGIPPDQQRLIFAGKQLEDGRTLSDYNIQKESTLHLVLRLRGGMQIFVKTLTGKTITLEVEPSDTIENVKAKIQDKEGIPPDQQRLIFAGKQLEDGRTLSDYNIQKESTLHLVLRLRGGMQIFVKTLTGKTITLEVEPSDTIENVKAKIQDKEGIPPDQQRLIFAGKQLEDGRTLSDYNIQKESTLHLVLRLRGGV"}, "source": "paper PMC7477763", "target": "B-Ub-VME (biotin-6-Ahx-Ub-VME activity-based probe) (UniProt P0CG48)", "data": [{"substance": "Middle East respiratory syndrome papain-like protease (MERS PLpro), recombinant", "values": [{"measurement": "kobs/I", "value": "7660 ± 475", "unit": "M^–1 s^–1"}]}]}
